Here are results for 2 compounds from patent US10912740B2, “Treating hepatitis C with cannabidiol” (Vilotos Pharmaceuticals, Inc., priority 2017, dated 2021).

Each structure is given as a SMILES string.

In the data set the test system is hepatitis C virus. Nature of the data set: Dose-response assay against hepatitis C virus (EC50). It counts as cell-based. Particulars: selective index, CC50 over EC50. The protocol: Huh7.5 cells are grown in Dulbecco's modified essential media (DMEM), 10% fetal bovine serum (FBS), 1% penicillin-streptomycin (pen-strep), 1% Non-essential amino acids (NEAA) in a 5% CO2 incubator at 37° C. Huh7.5 cells were seeded at 1×10^4 cells per well into 96-well plates according to Southern Research Institute standard format. The test article was serially diluted with DMEM plus 5% FBS. The diluted compound in the amount of 50 μl was mixed with equal volume of cell culture-derived HCV (HCVcc), then applied to appropriate wells in the plate. Human interferon alpha-2b (rIFNα-2b) was included as a positive control compound. After 72 hr incubation at 37° C., the cells were lysed for measurement of luciferase activity using Renilla Luciferase Assay System (Promega) according to manufacturer's instruction. The number of cells in each well were determined by CytoTox-1 reagent (Promega). […] HCV replicon levels are assessed as replicon derived Luc activity. The toxic concentration of drug that reduced cell numbers was assessed by the CytoTox-1 cell proliferation assay (Promega), a fluorometric assay of cell numbers (and cytotoxicity). […]

`C=C(C)[C@@H]1CCC(C)=C[C@H]1c1c(O)cc(CCCCC)cc1O` [CBD, Cannabidiol]: the SI is 4.954.

Regarding `CC(C)OC(=O)[C@H](C)N[P@](=O)(OC[C@H]1O[C@@H](n2ccc(=O)[nH]c2=O)[C@](C)(F)[C@@H]1O)Oc1ccccc1` [Sofosbuvir, reference compound], the SI is given as over 181.
